Experimental data published in ChEMBL document CHEMBL3045960 (Pest Manag Sci, 2011).
Converted amounts (≈) assume the structure as drawn.

Key:
[1] = test system: Fusarium graminearum; assay: Fungicidal activity against Fusarium graminearum ZJ80 harboring mutation at codon 198 of beta2 tubulin assessed as mycelial growth inhibition after 3 days
[2] = test system: Fusarium graminearum; assay: Fungicidal activity against Fusarium graminearum F200Y harboring mutation at codon 200 of beta2 tubulin assessed as mycelial growth inhibition after 3 days
[3] = test system: Fusarium graminearum; assay: Fungicidal activity against Fusarium graminearum 2021 assessed as mycelial growth inhibition after 3 days
[4] = test system: Fusarium graminearum; assay: Fungicidal activity against Fusarium graminearum E198K harboring mutation at codon 198 of beta2 tubulin assessed as mycelial growth inhibition after 3 days
[5] = test system: Fusarium graminearum; assay: Fungicidal activity against Fusarium graminearum F167Y harboring mutation at codon 167 of beta2 tubulin assessed as mycelial growth inhibition after 3 days
[6] = test system: Fusarium graminearum; assay: Fungicidal activity against Fusarium graminearum NT7 harboring mutation at codon 200 of beta2 tubulin assessed as mycelial growth inhibition after 3 days
[7] = test system: Fusarium graminearum; assay: Fungicidal activity against Fusarium graminearum E198Q harboring mutation at codon 198 of beta2 tubulin assessed as mycelial growth inhibition after 3 days
[8] = test system: Fusarium graminearum; assay: Fungicidal activity against Fusarium graminearum Y50C harboring mutation at codon 50 of beta2 tubulin assessed as mycelial growth inhibition after 3 days
[9] = test system: Fusarium graminearum; assay: Fungicidal activity against Fusarium graminearum 2052 harboring mutation at codon 167 of beta2 tubulin assessed as mycelial growth inhibition after 3 days
[10] = test system: Fusarium graminearum; assay: Fungicidal activity against Fusarium graminearum DN83 harboring beta2 tubulin deletion mutation assessed as mycelial growth inhibition after 3 days
[11] = test system: Fusarium graminearum; assay: Fungicidal activity against Fusarium graminearum J2 harboring mutation at codon 198 of beta2 tubulin assessed as mycelial growth inhibition after 3 days

SMILES: COC(=O)Nc1nc2ccccc2[nH]1
- EC50 [1]: 3.52 µg/mL (≈ 18.4 µM)
- EC50 [2]: 10.9 µg/mL (≈ 57.2 µM)
- EC50 [3]: 0.47 µg/mL (≈ 2.46 µM)
- EC50 [4]: 3.52 µg/mL (≈ 18.4 µM)
- EC50 [5]: 10.8 µg/mL (≈ 56.7 µM)
- EC50 [6]: 10.9 µg/mL (≈ 57.1 µM)
- EC50 [7]: 3.33 µg/mL (≈ 17.4 µM)
- EC50 [8]: 3.24 µg/mL (≈ 16.9 µM)
- EC50 [9]: 12.3 µg/mL (≈ 64.4 µM)
- EC50 [10]: 0.1 µg/mL (≈ 0.523 µM)
- EC50 [11]: 3.59 µg/mL (≈ 18.8 µM)

SMILES: CCCCNC(=O)n1c(NC(=O)OC)nc2ccccc21 [BENOMYL]
- EC50 [1]: 3.19 µg/mL (≈ 11 µM)
- EC50 [2]: 6.05 µg/mL (≈ 20.8 µM)
- EC50 [4]: 4.46 µg/mL (≈ 15.4 µM)
- EC50 [5]: 15 µg/mL (≈ 51.6 µM)
- EC50 [6]: 8.83 µg/mL (≈ 30.4 µM)
- EC50 [7]: 3.93 µg/mL (≈ 13.5 µM)
- EC50 [8]: 3.02 µg/mL (≈ 10.4 µM)
- EC50 [9]: 17.7 µg/mL (≈ 60.9 µM)
- EC50 [11]: 5.81 µg/mL (≈ 20 µM)

SMILES: c1ccc2[nH]c(-c3cscn3)nc2c1 [THIABENDAZOLE]
- EC50 [1]: 4.52 µg/mL (≈ 22.5 µM)
- EC50 [2]: 5.85 µg/mL (≈ 29.1 µM)
- EC50 [4]: 3.56 µg/mL (≈ 17.7 µM)
- EC50 [5]: 14.6 µg/mL (≈ 72.7 µM)
- EC50 [6]: 6.76 µg/mL (≈ 33.6 µM)
- EC50 [7]: 4.52 µg/mL (≈ 22.5 µM)
- EC50 [8]: 3.74 µg/mL (≈ 18.6 µM)
- EC50 [9]: 10.8 µg/mL (≈ 53.4 µM)
- EC50 [11]: 3.86 µg/mL (≈ 19.2 µM)

SMILES: COC(=O)NC(=S)Nc1ccccc1NC(=S)NC(=O)OC [THIOPHANATE METHYL]
- EC50 [1]: 42.9 µg/mL (≈ 125 µM)
- EC50 [4]: 33.5 µg/mL (≈ 97.8 µM)
- EC50 [7]: 41.3 µg/mL (≈ 121 µM)
- EC50 [11]: 38.2 µg/mL (≈ 111 µM)
